Measurements from publication PMC8787487.

What was measured:
CC(C)[C@H](N)C(=O)O = assay: cells, lysate or membranes; conditions: 37.0 °C
CC[C@H](C)[C@H](N)C(=O)O = assay: cells, lysate or membranes; conditions: 37.0 °C

Substance	Km (CC(C)[C@H](N)C(=O)O) [µM]	Vmax (CC(C)[C@H](N)C(=O)O) [µmol/min/mg]	Km (CC[C@H](C)[C@H](N)C(=O)O) [µM]	Vmax (CC[C@H](C)[C@H](N)C(=O)O) [µmol/min/mg]
BrnQ5 (Bacillus anthracis)	4 ± 2.5	0.0026	5.8 ± 3.7	0.0053
BrnQ3 (Bacillus anthracis)	3.3 ± 1.8	0.0041	3.6 ± 1.6	0.0055
BrnQ4 (Bacillus anthracis)	3.9 ± 1.6	0.0067	4.9 ± 2.9	0.0085
